Test results from patent US20240076299A1, “TUBERCULATIN ANALOGS AS ANTIVIRAL AGENTS” (priority 2020, published 2024).

Experiments:
AIV = format: cell-based, avian influenza virus (H5N1); details: ratio CC50 / EC50
VSV = format: cell-based, vesicular stomatitis virus; details: ratio CC50 / EC50
HIV = format: cell-based, HIV-1

COc1cc2c(O[C@H]3OC[C@@]4(CO)OC(C)(C)O[C@@H]34)c3c(c(-c4ccc5c(c4)OCO5)c2cc1OC)C(=O)OC3 [Compound 10]
SI AIV (AIV): 536
SI VSV (VSV): 266
increase of antiviral activity in comparison with unacetonized counterpart (HIV): ~12 times

COc1cc2c(O[C@H]3OC[C@](O)(CO)[C@H]3O)c3c(c(-c4ccc5c(c4)OCO5)c2cc1OC)C(=O)OC3 [Compound 19]
SI AIV (AIV): 30.0
SI VSV (VSV): 14.6

COc1cc2c(O[C@H]3OC[C@@]4(CN)OC(C)(C)O[C@@H]34)c3c(c(-c4ccc5c(c4)OCO5)c2cc1OC)C(=O)OC3 [Compound 26]
SI AIV (AIV): 3.4
SI VSV (VSV): 4.6

COc1cc2c(O[C@H]3OC[C@@]4(CO)OC(c5ccccc5)O[C@@H]34)c3c(c(-c4ccc5c(c4)OCO5)c2cc1OC)C(=O)OC3 (stereo partly shown) [Compound 18]
SI AIV (AIV): 295
SI VSV (VSV): 85.9

COc1cc2c(O[C@H]3OC[C@@]4(COC(C)=O)OC(c5ccccc5)O[C@@H]34)c3c(c(-c4ccc5c(c4)OCO5)c2cc1OC)C(=O)OC3 (stereo partly shown) [Compound 21]
SI AIV (AIV): 14.9
SI VSV (VSV): 7.8

COc1cc2c(O[C@H]3OC[C@@]4(COC(=O)c5cccnc5)OC(C)(C)O[C@@H]34)c3c(c(-c4ccc5c(c4)OCO5)c2cc1OC)C(=O)OC3 [Compound 29]
SI AIV (AIV): 55.8
SI VSV (VSV): 24.3

COc1cc2c(O)c3c(c(-c4ccc5c(c4)OCO5)c2cc1OC)C(=O)OC3 [Diphyllin (7), diphyllin, reference compound]
SI AIV (AIV): 842
SI VSV (VSV): 176

COc1cc2c(O[C@H]3OC[C@@]4(CN=[N+]=[N-])OC(C)(C)O[C@@H]34)c3c(c(-c4ccc5c(c4)OCO5)c2cc1OC)C(=O)OC3 [Compound 25]
SI AIV (AIV): 895
SI VSV (VSV): 143

COc1cc2c(O[C@H]3OC[C@@]4(COC(=O)c5ccncc5)OC(C)(C)O[C@@H]34)c3c(c(-c4ccc5c(c4)OCO5)c2cc1OC)C(=O)OC3 [Compound 28]
SI AIV (AIV): 33.5
SI VSV (VSV): 10.0

COc1cc2c(O[C@@H]3OC[C@@]4(COC(C)=O)OC(c5ccccc5)O[C@@H]34)c3c(c(-c4ccc5c(c4)OCO5)c2cc1OC)C(=O)OC3 (stereo partly shown) [Compound 20]
SI AIV (AIV): 39.2
SI VSV (VSV): 29.1

COc1cc2c(O[C@H]3OC[C@@]4(COC(=O)c5ccccc5)OC(C)(C)O[C@@H]34)c3c(c(-c4ccc5c(c4)OCO5)c2cc1OC)C(=O)OC3 [Compound 27]
SI AIV (AIV): 22.4
SI VSV (VSV): 18.2

COc1cc2c(O[C@H]3OC[C@](O)(COC(C)=O)[C@H]3O)c3c(c(-c4ccc5c(c4)OCO5)c2cc1OC)C(=O)OC3 [Compound 23]
SI AIV (AIV): 528
SI VSV (VSV): 127

For some of these results: The amount applied is not stated for every result.
